The subject of this data set is C57BL/6J mice. To be noted: mouse, in vivo.

Regarding `NC1=N[C@H](O)[C@H]2[C@H]3O[C@]4(O)O[C@@H]([C@@H](O)[C@@]2(N1)[C@@H]4O)[C@]3(O)CO` [TTX, tetrodotoxin], the side effects result was “caused sedation, and reduced motor coordination”.

For the origin of these results see publication PMC5589098 (PLoS ONE, 2017).
